PMC6709497, “Identification of Novel Trypanosoma cruzi Proteasome Inhibitors Using a Luminescence-Based High-Throughput Screening Assay” (Antimicrobial Agents and Chemotherapy, 2019)

By UniProt entry, the sequences of proteins in these tests, tags left out. Residues count along the entry.
UniProt V5BU39, 111-311 limits assumed: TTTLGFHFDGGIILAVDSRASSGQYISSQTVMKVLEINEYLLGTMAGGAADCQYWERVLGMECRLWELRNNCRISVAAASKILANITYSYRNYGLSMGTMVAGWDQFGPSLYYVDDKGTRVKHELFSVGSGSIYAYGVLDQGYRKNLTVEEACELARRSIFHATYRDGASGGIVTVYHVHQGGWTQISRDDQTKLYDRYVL
UniProt A0A2V2VW62, 32-246 partner limits assumed: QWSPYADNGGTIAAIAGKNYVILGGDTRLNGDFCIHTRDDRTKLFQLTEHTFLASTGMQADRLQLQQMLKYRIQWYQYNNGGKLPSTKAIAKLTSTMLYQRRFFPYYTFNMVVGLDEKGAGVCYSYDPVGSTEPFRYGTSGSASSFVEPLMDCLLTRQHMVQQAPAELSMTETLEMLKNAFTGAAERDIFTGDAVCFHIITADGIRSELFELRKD
UniProt V5C017, 1-206 partner: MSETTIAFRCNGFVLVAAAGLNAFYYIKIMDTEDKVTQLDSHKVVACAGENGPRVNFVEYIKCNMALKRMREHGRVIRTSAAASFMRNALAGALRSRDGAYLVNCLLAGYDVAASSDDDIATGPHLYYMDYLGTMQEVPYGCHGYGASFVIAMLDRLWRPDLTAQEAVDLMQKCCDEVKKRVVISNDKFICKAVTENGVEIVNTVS

Target: T. cruzi proteasome chymotrypsin-like activity (Trypanosoma cruzi, UniProt V5BU39)
Assay: Primary T. cruzi proteasome chymotrypsin-like activity assay, hit compound pIC50 determination
Conditions: for Replicate 1 pIC50: independent replicate 1; for Replicate 2 pIC50: independent replicate 2

| SMILES | Replicate 1 pIC50 | Replicate 2 pIC50 |
| --- | --- | --- |
| CCN1CCc2c(sc(NC(=O)COc3ccc(Cl)cc3)c2C(N)=O)C1 | 5.11 | 5.07 |
| Cc1cc(C(=O)N2CCC3(CCCN(CC4CC4)C3=O)C2)c(C)n1C (stereo not shown) |  | 4.07 |
| COc1cccc(NC(=O)c2csnn2)c1 | 4.59 | 4.51 |
| CCc1ccc(-c2cc(C(=O)O)c3cccc(C)c3n2)s1 | 4.14 | 4.09 |
| O=C(O)c1ccccc1NS(=O)(=O)c1ccc2ccccc2c1 | 4.58 | 4.52 |
| CCCNC(=O)COC(=O)c1csc(-c2ccccc2)n1 | 4.46 | 4.47 |
| Cc1cc(S(=O)(=O)Nc2cccc(-n3cccc3)c2)sc1C(=O)O | 4.78 | 4.72 |
| O=C(O)COCC(=O)Nc1ccc(OCc2ccccc2)cc1 | 4.68 | 4.62 |
| CCC(C)c1ccc(C(=O)CSc2nnc(N)s2)cc1 (stereo not shown) |  | 5.13 |
| Cc1ccc(-c2nc(CN3CCC(C(=O)N(C)C)CC3)cs2)o1 | 4.37 | 4.33 |
| CC(C)CCOc1ccc(C(=O)O)cc1 | 4.40 | 4.27 |
| CCCC(NC(=O)c1cc(C)n(C2CC2)c1C)c1nn[nH]n1 (stereo not shown) | 4.25 | 4.17 |
| CSCC(=O)Nc1nc2c(s1)CCCC2 | 4.75 | 4.45 |
| COc1ccc(C(=O)OCC(=O)c2ccc(Cl)s2)cn1 | 4.15 | 4.00 |
| COc1ccc(OCCN2C(=O)c3ccccc3S2(=O)=O)cc1 | 4.80 | 4.84 |
| CCN(CC(F)(F)F)C(=O)c1sc(NC(=O)c2ccco2)cc1C |  | 4.53 |
| OC1CCCN(Cc2csc(-c3cccs3)n2)C1 (stereo not shown) | 4.62 | 4.61 |
| Nc1c(C(=O)N2CCCCCC2)nnn1-c1ccc(F)cc1 | 4.80 | 4.73 |
| O=C(Nc1ccc(S(=O)(=O)C(F)F)cc1)c1cc(Cl)ccn1 | 4.91 | 4.90 |

| SMILES | Replicate 1 pIC50 | Replicate 2 pIC50 |
| --- | --- | --- |
| Cc1cccc(OCCN2C(=O)c3ccccc3S2(=O)=O)c1 | 4.87 | 4.90 |
| Cc1ccc(-c2ccc(C(=O)O)o2)cc1 | 4.55 | 4.47 |
| N#Cc1cccnc1N1CCOC(c2cccc(Br)c2)C1 (stereo not shown) | 4.85 | 4.60 |
| COc1ccc(NC(=O)c2csnn2)cc1 | 4.77 | 4.85 |
| Cc1ccc(N(C)C2CCN(C(=O)CCc3ccco3)CC2)nn1 | 4.89 | 4.78 |
| CCNS(=O)(=O)c1cc(C(=O)Nc2ccccc2)ccc1OC | 4.64 | 4.62 |
| Clc1ccc(-c2ccc(CNc3nn[nH]n3)o2)c(Cl)c1 | 4.62 | 4.23 |
| Cc1cnn(C2CN(CC(=O)NCc3ccccn3)C2)c1 | 4.83 | 4.71 |
| CNc1nc(-c2ccc3c(c2)CC(=O)N3C)cs1 | 4.13 | 4.04 |
| Cc1ccc(-c2cc(C(=O)NC3CC3)on2)cc1 | 5.31 | 5.04 |
| N#Cc1cccnc1N1CCOC(c2ccccc2Br)C1 (stereo not shown) | 4.89 | 4.77 |
| Cc1cc(N)n(-c2ccc(C)c(C)c2)n1 | 4.38 | 4.73 |
| CC(=O)NCc1ccc(-c2csc(NC3CC3)n2)cc1 | 4.27 | 4.30 |
| Cc1nc(CN2CCCC(N(C)Cc3cscn3)C2)no1 (stereo not shown) | 4.46 | 4.58 |
| CCCOc1ccc2c(c1)OCC(C(=O)O)=C2 | 4.70 | 4.60 |
| NC(=O)c1nc(COc2ccc3c(c2)OCO3)no1 | 5.05 | 4.98 |
| CCCNC(=O)COCc1nnc(C(=O)Nc2cccc(Cl)c2)s1 | 5.51 | 5.44 |
| O=C(Nc1cccc(F)c1)c1cnccn1 | 4.18 | 4.24 |
| O=C(Nc1ccc(F)c(Br)c1)N1CCCC1 | 4.95 | 4.94 |
